What all share (experiment): cell-based or functional assay
Assay [1] concerns the target human Nav1.2 (human), Q99250.
The target of assay [2] is human Nav1.4 (human), P35499.
The target in assay [3] is human Nav1.5 (human), Q14524.
The target in assay [4] is Nav1.9 channel (co-expressing with human Trkb, Navβ1, and Navβ2 subunits) (human), Q9UI33.
Assay [5] deals with human Nav1.8 channel (co-expressing with human Navβ1 and Navβ2 subunits) (human), Q9Y5Y9.

Turning to YCQKWMQTCDKDRKCCEGLRCRLWCRKELL (modifications not checked) [PTx2-3066], the percent block of hNav1.2 current at 10 µM peptide in assay [1] was 41%. Moreover, in assay [2], the percent block of hNav1.4 current at 10 µM peptide stood at 34%. In assay [3], the percent block of hNav1.5 current at 10 µM peptide was found to be 1%.
Regarding QCQKWMQTCDKDRKCCEGFRCRLWCRKELL (modifications not checked) [PTx2-3127], in assay [4], the hNav1.9 IC50 (nM), whole-cell patch clamp is over 150000 nM. The molecule also displayed a hNav1.8 IC50 (nM), whole-cell patch clamp in assay [5] of over 150000 nM.
Consider YCQKAFWTCDSARKCCEGLRCRLWCRKELW (modifications not checked) [PTx2-3064], for which, in assay [1], the percent block of hNav1.2 current at 10 µM peptide turned out to be 92%. The molecule further had a percent block of hNav1.4 current at 10 µM peptide in assay [2] of 66%. The percent block of hNav1.5 current at 10 µM peptide in assay [3] is 25%.
QCQKWMQTCDKARKCCEGFRCRLWCRKELL (modifications not checked) [PTx2-3128] had a hNav1.9 IC50 (nM), whole-cell patch clamp in assay [4] of 8000 nM.

The values above are taken from patent publication US20260001922A1, “PEPTIDES TARGETING SODIUM CHANNELS TO TREAT PAIN” (priority 2022, published 2026).
